Publication PMC9457815 (Molecules, 2022)
Read-outs that look alike come from different tables or passages of the source.

Legend:
HIV-1GFP = format: cell-based, human immunodeficiency virus (HIV)-1
Description: (§1) The plasmid used to obtain the DENVGFP vector (pFK-DVs-G2A) was provided by Ralf Bartenschlager (Heidelberg University, Heidelberg, Germany) and Laurent Chatel-Chaix (Institut National de la Recherche Scientifique, Laval, QC, Canada). The 2 plasmids used to obtain the HIV-1GFP vector were PMD2.G and pNL4-3-GFPΔEnvΔNef. For DENVGFP, viral titer was measured using a plaque assay in Vero cells, as described in [53]. For HIV-1GFP, the viral titer was obtained by measuring the infectivity of serially diluted vectors in CRFK cells, as described in [54].
(§2) Briefly, 7.5 × 10^3 Huh7 cells/well or 2 × 10^4 THP-1 cells/well were plated in 96-well plates at 37 °C for 24 h. […] Each dilution was added to the cell plates to obtain final concentrations of 1.56 µM to 200 µM for alkaloids and matched concentrations of DMSO, and 0.05 µM to 6.4 µM for lycorine or 0.078 µM to 10 µM for raltegravir. Lycorine and raltegravir were used as DENV and HIV-1 inhibitor controls, respectively. DENVGFP and HIV-1GFP were then added at multiplicities of infection (MOIs) of 0.025 and 0.1, respectively. Plates were placed in an incubator at 37 °C and 5% CO2 for 72 h. Afterward, the cells were fixed in 3.7% formaldehyde and the percentage of infection was measured using flow cytometry with an FC500 MPL cytometer (Beckman Coulter, Inc., Brea, CA, USA). Data analysis was performed using Flowjo software (BD, FlowJo LLC, Ashland, OR, USA). All experiments were performed at least twice. EC50 values were calculated using QuestGraph IC50 calculator software (MLA Quest Graph™ IC50 Calculator. AAT Bioquest, Inc. https://www.aatbio.com/tools/ic50-calculator (accessed on 1 July 2022)).

DENVGFP = assay: Antiviral assay, propagative DENVGFP vector in Huh7 cells, flow cytometry; format: cell-based, dengue virus (serotype 2); conditions: SI = CC50/EC50 (Huh7)
Description: as §1, §2

SMILES	SI HIV-1 (HIV-1GFP; SI = CC50/EC50 (THP-1))	SI HIV-1 (HIV-1GFP; ratio CC50 / EC50)	SI DENV (DENVGFP)
O=Cc1ccc(O)c(O)c1 [3,4-DHBA, 3,4-dihydroxybenzaldehyde]	0.6		
COc1ccc(CNCCc2ccc(O)cc2)cc1OC [3′,4′-O-dimethylnorbelladine]		>2.0	
COc1ccc(/C=N/CCc2ccc(O)cc2)cc1OC [3′,4′-O-dimethylnorcraugsodine]	<1.0		<1.0
COc1cc(CNCCc2ccc(O)cc2)ccc1O [3′-O-methylnorbelladine]		0.73	
COc1cc(/C=N/CCc2ccc(O)cc2)ccc1O [3′-O-methylnorcraugsodine]			>1.1
COc1ccc(CNCCc2ccc(O)cc2)cc1O [4′-O-methylnorbelladine]		>1.8	
COc1ccc(/C=N/CCc2ccc(O)cc2)cc1O [4′-O-methylnorcraugsodine]	<1.0		<1.0
O[C@H]1[C@H]2c3cc4c(cc3CN3CCC(=C[C@@H]1O)[C@H]23)OCO4 [Lycorine, reference compound]			193.3
Oc1ccc(CCNCc2ccc(O)c(O)c2)cc1 [Norbelladine]			1.4
Oc1ccc(CC/N=C/c2ccc(O)c(O)c2)cc1 [Norcraugsodine]	0.5		3.2
Cc1nnc(C(=O)NC(C)(C)c2nc(C(=O)NCc3ccc(F)cc3)c(O)c(=O)n2C)o1 [Raltegravir, reference compound]	>102		
NCCc1ccc(O)cc1 [Tyramine]	<1.0		<1.0
